Measurements as given in publication PMC6267092.

Legend:
[1] = tested on: CCCC(=O)Oc1ccc([N+](=O)[O-])cc1; test: purified protein; settings: 30 °C, Hill coefficient 3.12 ± 0.662, kcat apparent
[2] = tested on: CC(=O)Oc1ccc([N+](=O)[O-])cc1; test: purified protein; settings: 30 °C, Hill coefficient 2.09 ± 0.363, kcat apparent

## LdtP (His6X-LdtP; CLIBASIA_01175) (Candidatus Liberibacter asiaticus str. gxpsy)
[1]
  K0.5: 0.44 ± 0.032 mM
  Vmax: 0.16 µmol/min/mg
  kcat: 0.13 s⁻¹
  kcat/Km: 288 M⁻¹ s⁻¹
[2]
  K0.5: 0.44 ± 0.035 mM
  Vmax: 0.67 µmol/min/mg
  kcat: 0.54 s⁻¹
  kcat/Km: 1240 M⁻¹ s⁻¹
